Results of unrelated studies side by side (data: NIAID ChemDB).

Common to all: growth or infection tests; organism: Coxsackie virus; method: cytopathic effect; read-out: EC50

Two numbers with a dash give a range or band. ECn: concentration that inhibits the pathogen or its effect by n%. Lines come from different laboratories, so protocols vary. Blank or dashed fields: not listed here.

compound	cells	strain or isolate	result
CCn1nnc(-c2ccc(OCCC(C)CCN3CCN(c4ccncc4)C3=O)cc2)n1	RD	B3	25 µM
N#Cc1cc([N+](=O)[O-])ccc1Oc1ccc(Cl)c(Cl)c1	HeLa	TYPE A21	0.2 µg/mL
CC1(C)[C@@H](CO)CC[C@@]1(C)Cn1nnc2c(=O)[nH]cnc21	VERO	TYPE B4	>400 µg/mL
CCC(Sc1ncnc2c1cnn2CCCCO)C(N)=O	HeLa	TYPE B4	>400 µg/mL
Cc1nc(C(C)C)c2[nH]c(=S)[nH]c(=O)n12	HeLa	TYPE B4	300 µg/mL
Cc1cn([C@H]2C/C(=N\O)[C@@H](CO)O2)c(=O)[nH]c1=O	VERO		>200 µg/mL
NC(=S)c1cncc([C@@H]2O[C@H](CO)[C@@H](O)[C@@H]2O)c1	HeLa	TYPE B4	≥100 µg/mL
CC1(C)[C@@H](CCO)C[C@H]1n1cnc2c(=O)[nH]c(N)nc21	HeLa	TYPE B4	>400 µg/mL
Nc1ccn([C@@H]2OC[C@H](CO)[C@H]2O)c(=O)n1	VERO	TYPE B4	>80 µg/mL
CC1(C)[C@@H](CO)CC[C@@]1(C)Cn1cc(I)c(=O)[nH]c1=O	VERO	TYPE B4	>400 µg/mL
COc1cc(Cc2cnc(-n3c(-c4ccccc4)nc4ccc(Br)cc4c3=O)nc2N)cc(OC)c1OC	HeLa	TYPE B4	>16 µg/mL
N#Cc1cncc([C@H]2O[C@H](CO)[C@@H](O)[C@@H]2O)c1	HeLa	TYPE B4	≥100 µg/mL
CCn1c(-c2ccccc2)c(C)c(=O)c2cc(OCC(C)C)ccc21	HeLa S3	TYPE B4/JVB	>4 µg/mL
NC(=O)c1cncc([C@@H]2O[C@H](CO)[C@H](O)[C@@H]2O)c1	VERO	TYPE B4	≥100 µg/mL
Cc1cc(Oc2ccc(Cl)c(Cl)c2)ccc1S(C)(=O)=O	HeLa	TYPE A21	151 µM
CSc1ccc(CCCOc2cc(C)c(-c3noc(C(F)F)n3)c(C)c2)nn1	HeLa		0.033–0.659 µg/mL
Nc1ncnc2c1ncn2C1CC(CO)[C@@H](O)[C@H]1O	HeLa	TYPE B4	4 µg/mL
N#Cc1cncc([C@@H]2O[C@H](CO)[C@@H](O)[C@@H]2O)c1	HeLa	TYPE B4	≥100 µg/mL
COc1ccc(-c2c(C)c(=O)c3cc(OCC(C)C)c(C)cc3n2C)cc1C	HeLa S3	TYPE A7	>4 µg/mL
CCOc1cc(O)c(C(=O)/C=C/c2ccc(OC)cc2)c(OC)c1	HeLa	B1	>3 µg/mL
CC=NC(=N)c1nc(-c2ccc(OC)cc2)n(COCCO)n1	HeLa	TYPE B4	>200 µg/mL
[N-]=[N+]=N[C@H]1[C@@H](F)[C@H](n2cnc3c(N)ncnc32)O[C@@H]1CO	VERO B	TYPE B4	200 µg/mL
C=CCc1ncn2c(=O)[nH]c(NC(C)=O)nc12	HeLa	TYPE B4	>400 µg/mL
N#Cc1cncc([C@@H]2O[C@H](CO)[C@H](O)[C@@H]2O)c1	VERO	TYPE B4	≥100 µg/mL
CC(=O)Nc1ccc(Cc2ccc(S(C)(=O)=O)cn2)cc1	HeLa	TYPE A21	>10 µg/mL
Cc1cc(OCCCc2ccc(C(C)F)nn2)ccc1-c1noc(C(F)F)n1	HeLa		0.033–0.659 µg/mL
CSCC1=C[C@@H](n2cnc3c(N)ncnc32)[C@H](O)[C@@H]1O	VERO	TYPE B4	>200 µg/mL
Cc1ccc(CCCOc2cc(C)c(-c3noc(C(F)F)n3)c(C)c2)nn1	HeLa		0.033–0.659 µg/mL
Cc1cn(CCCC(O)CF)c(=O)[nH]c1=O	HeLa	TYPE B4	>400 µg/mL
OC[C@H]1O[C@@H](c2cncc(Br)c2)[C@@H](O)[C@@H]1O	HeLa	TYPE B4	≥100 µg/mL
Cc1cn([C@H]2O[C@H](CO)[C@@H](N=[N+]=[N-])[C@H]2F)c(=O)nc1N	HeLa	TYPE B4	>400 µg/mL
C=C[C@@H](O)C1=C[C@@H](n2cnc3c(N)ncnc32)[C@H](O)[C@@H]1O	HeLa	TYPE B4	>200 µg/mL
CC(=O)Nc1nc2c(CC(O)CO)ncn2c(=O)[nH]1	HeLa	TYPE B4	>200 µg/mL
C=CC1=C[C@@H](n2cnc3c(N)ncnc32)[C@H](O)[C@@H]1O	VERO	TYPE B4	>200 µg/mL
CC=NC(=N)c1nc(-c2cccc(OC)c2)n(Cc2ccccc2)n1	VERO	TYPE B4	>10 µg/mL
C=CCc1nc(C)n2c(=O)[nH]c(NC(C)=O)nc12	HeLa	TYPE B4	>400 µg/mL
Nc1ncnc2c1ncn2[C@H]1C[C@@H](CO)[C@H](O)[C@@H]1O	VERO	TYPE B4	>400 µg/mL
N#Cc1cncc([C@H]2O[C@H](CO)[C@H](O)[C@@H]2O)c1	VERO	TYPE B4	≥100 µg/mL
CCS(=O)(=O)c1ccc(NCc2ccc(Cl)cc2)nc1C#N	HeLa	TYPE A21	1.6 µg/mL
C=C[C@H](O)C1=C[C@@H](n2cnc3c(N)ncnc32)[C@H](O)[C@@H]1O	HeLa	TYPE B4	>100 µg/mL
Cc1cc(OCCCc2ccc(F)nn2)cc(C)c1-c1noc(C(F)(F)F)n1	HeLa		0.033–0.659 µg/mL
Nc1ncnc2c1ncn2[C@@H]1C=C(CO)[C@@H](O)[C@H]1O	HeLa	TYPE B4	≥40 µg/mL
CS(=O)(=O)c1ccc(NCc2ccc(Br)cc2)nc1	HeLa	TYPE A21	1.6 µg/mL
Cc1nc(-c2cc(C)c(OCCCc3ccco3)c(C)c2)no1	HeLa		0.033–0.659 µg/mL
NC(=O)CSc1ncnc2c1cnn2COCC(O)CO	HeLa	TYPE B4	>400 µg/mL
CCc1nc(-n2c(-c3ccccc3)nc3ccc(Br)cc3c2=O)nc(N)c1-c1ccc(Cl)cc1	HeLa	TYPE B4	>16 µg/mL
Cc1cc(OCCCc2ccc(=O)[nH]n2)cc(C)c1-c1noc(C(F)F)n1	HeLa		0.033–0.659 µg/mL
CC=NC(=N)c1nc(-c2cccc(OC)c2)n(C/C=C/c2ccccc2)n1	HeLa	TYPE B4	>10 µg/mL
Nc1nc(Cl)c2ccn([C@H]3CO[C@@H](CO)C3)c2n1	VERO	TYPE B4	>200 µg/mL
CCSc1ccc(Oc2ccc(C(=O)c3ccccc3)cc2)nc1C#N	HeLa	TYPE A21	<0.2 µg/mL
Nc1ccn([C@@H]2O[C@H](CO)[C@@H](F)[C@H]2O)c(=O)n1	VERO B	TYPE B4	300 µg/mL
CS(=O)(=O)c1ccc(Oc2ccc(C(=O)c3ccccc3)cc2)nc1	HeLa	TYPE A21	1.3 µg/mL
Cc1cn(C(CF)CCCO)c(=O)[nH]c1=O	HeLa	TYPE B4	>400 µg/mL
CCCc1ccc(CCCOc2ccc(-c3ccccc3)c(Br)c2)nn1	HeLa		0.033–0.659 µg/mL
CS(=O)(=O)c1ccc(Oc2ccc(Cl)c(Cl)c2)c(C#N)c1	HeLa	TYPE A21	292 µM
CCn1c(-c2cccc(F)c2)c(C)c(=O)c2cc(C(C)C)ccc21	HeLa S3	TYPE B4/JVB	>4 µg/mL
Cc1cn([C@@H]2OC[C@H](CO)[C@H]2O)c(=O)[nH]c1=O	HeLa	TYPE B4	>80 µg/mL
CS(=O)(=O)c1ccc(Cc2ccc(Br)cc2)nc1	HeLa	TYPE A21	5 µg/mL
C=C(N=CC)c1nc(-c2ccc(C)cc2)n([C@@H]2O[C@H](CO)[C@@H](O)[C@H]2O)n1	VERO	TYPE B4	>40 µg/mL
CC1=C[C@@H](n2cnc3c(N)ncnc32)[C@H](O)[C@@H]1O	HeLa	TYPE B4	>200 µg/mL
CS(=O)(=O)c1ccc(Cc2ccc(F)cc2)nc1	HeLa	TYPE A21	2.5 µg/mL
CC1(C)[C@@H](CCO)C[C@H]1n1nnc2c(N)nc(N)nc21	HeLa	TYPE B4	200 µg/mL
CC1(C)[C@@H](CO)CC[C@@]1(C)Cn1nnc2c(Cl)ncnc21	HeLa	TYPE B4	>400 µg/mL
CC1(C)[C@@H](CCO)C[C@H]1n1nnc2c(Cl)nc(N)nc21	HeLa	TYPE B4	>200 µg/mL
Nc1nc2c(ccn2[C@H]2CO[C@@H](CO)C2)c(=O)[nH]1	VERO	TYPE B4	>200 µg/mL
CC=NC(=N)c1nc(-c2ccc(C)cc2)n(Cc2ccccc2)n1	VERO	TYPE B4	>10 µg/mL
Nc1nc2c(ncn2CCCC(O)CF)c(=O)[nH]1	HeLa	TYPE B4	>400 µg/mL
CCn1c(-c2cccs2)cc(=O)c2cc(C(C)C)ccc21	HeLa S3	TYPE A7	3.9 µg/mL
Cc1cn([C@H]2OC[C@@H](CO)C2F)c(=O)[nH]c1=O	HeLa	TYPE B4	>80 µg/mL
CS(=O)(=O)c1ccc(Cc2ccc(Cl)c(Cl)c2)nc1	HeLa	TYPE B4	>10 µg/mL
CC(Sc1ncnc2c1cnn2CCCCO)C(N)=O	HeLa	TYPE B4	>400 µg/mL
CCc1nc(-n2c(C)nc3ccc(Br)cc3c2=O)nc(N)c1-c1ccc(Cl)cc1	HeLa	TYPE B4	>16 µg/mL

A second listing of 4 rows from above:

{"compound": "Nc1ccn([C@@H]2O[C@H](CO)[C@@H](F)[C@H]2O)c(=O)n1", "cells": "VERO B", "strain or isolate": "TYPE B4", "result": "300 µg/mL"}
{"compound": "Cc1cc(Oc2ccc(Cl)c(Cl)c2)ccc1S(C)(=O)=O", "cells": "HeLa", "strain or isolate": "TYPE A21", "result": "151 µM"}
{"compound": "N#Cc1cncc([C@@H]2O[C@H](CO)[C@@H](O)[C@@H]2O)c1", "cells": "HeLa", "strain or isolate": "TYPE B4", "result": "≥100 µg/mL"}
{"compound": "CC=NC(=N)c1nc(-c2ccc(C)cc2)n(Cc2ccccc2)n1", "cells": "VERO", "strain or isolate": "TYPE B4", "result": ">10 µg/mL"}